Measured values from patent US20200024330A1.
Where a chain is given by its changes, count along the chain named.

B1: 4858_P08 (PGT-123) (antibody, V domains shown)
VH: QLHLQESGPGLVKPPETLSLTCSVSGASINDAYWSWIRQSPGKRPEWVGYVHHSGDTNYNPSLKRRVTFSLDTAKNEVSLKLVDLTAADSATYFCARALHGKRIYGIVALGELFTYFYMDVWGKGTAVTVSS
VL: SSMSVSPGETAKISCGKESIGSRAVQWYQQKPGQPPSLIIYNNQDRPAGVPERFSASPDFRPGTTATLTITNVDAEDEADYYCHIYDARGGTNWVFDRGTTLTVL
B2: 5141_B17 (PGT-126) (antibody, V domains shown)
VH: QPQLQESGPGLVEASETLSLTCTVSGDSTAACDYFWGWVRQPPGKGLEWIGGLSHCAGYYNTGWTYHNPSLKSRLTISLDTPKNQVFLKLNSVTAADTAIYYCARFDGEVLVYHDWPKPAWVDLWGRGTLVTVSS
VL: QSALTQPPSASGSPGQSISISCTGTSNRFVSWYQQHPGKAPKLVIYGVNKRPSGVPDRFSGSKSGNTASLTVSGLQTDDEAVYYCSSLVGNWDVIFGGGTKLTVL
B3: 5145_B14 (PGT-127) (antibody, V domains shown)
VH: QPQLQESGPGLVEASETLSLTCTVSGDSTGRCNYFWGWVRQPPGKGLEWIGSLSHCRSYYNTDWTYHNPSLKSRLTISLDTPKNQVFLRLTSVTAADTATYYCARFGGEVLVYRDWPKPAWVDLWGRGTLVVTVSS
VL: B2 VL with S19T, R28N, H36Y, G47E, N66S, T77A, A81G
B4: 5345_I01 (PGT-137) (antibody, V domains shown)
VH: EVHLEESGPGLVRPSETLSLTCTASGGSIRGGEWGDSDYHWGWVRHSPEKGLEWIGSIHWRGTTHYNAPFRGRGRLSIDLSRNQFSLRLTSVTAEDTAVYYCVKHKYHDIVMVVPIAGWFDPWGQGLQVTVSS
VL: EIMMTQSPAILSVSPGDRATLSCRASQSVKNNLAWYQKRPGQAPRLLIFDTSSRASGIPARFSGGGSGTEFTLTVNSMQSEDFATYYCQQYEEWPRTFGQGTKVEIK
B5: 4838_L06 (PGT-121) (antibody, V domains shown)
VH: QMQLQESGPGLVKPSETLSLTCSVSGASISDSYWSWIRRSPGKGLEWIGYVHKSGDTNYSPSLKSRVNLSLDTSKNQVSLSLVAATAADSGKYYCARTLHGRRIYGIVAFNEWFTYFYMDVWGNGTQVTVSS
VL: SDISVAPGETARISCGEKSLGSRAVQWYQHRAGQAPSLIIYNNQDRPSGIPERFSGSPDSPFGTTATLTITSVEAGDEADYYCHIWDSRVPTKWVFGGGTTLTVL
B6: 4877_D15 (PGT-122) (antibody, V domains shown)
VH: QVHLQESGPGLVKPSETLSLTCNVSGTLVRDNYWSWIRQPLGKQPEWIGYVHDSGDTNYNPSLKSRVHLSLDKSKNLVSLRLTGVTAADSAIYYCATTKHGRRIYGVVAFKEWFTYFYMDVWGKGTSVTVSS
VL: TFVSVAPGQTARITCGEESLGSRSVIWYQQRPGQAPSLIIYNNNDRPSGIPDRFSGSPGSTFGTTATLTITSVEAGDEADYYCHIWDSRRPTNWVFGEGTTLIVL
B7: 5147_N06 (PGT-130) (antibody, V domains shown)
VH: QVQLQESGPGLVKPAETLSLTCSVSGESINTGHYYWGWVRQVPGKGLEWIGHIHYTTAVLHNPSLKSRLTIKIYTLRNQITLRLSNVTAADTAVYHCVRSGGDILYYYEWQKPHWFSPWGPGIHVTVSS
VL: QSALTQPPSASGSLGQSVTISCNGTSSDIGGWNFVSWYQQFPGRAPRLIIFEVNKRPSGVPGRFSGSKSGNSASLTVSGLQSDDEGQYFCSSLFGRWDVVFGGGTKLTVL

Molecular target: HIV-1 clade G pseudoviruses (Env) of the cross-clade 162-pseudovirus panel, n=15
Experiment: cell-based or functional assay

Going from B1 to B2, the Percent viruses neutralized with an IC50 <50 µg/ml falls from 47% to 20%.

Work on B3 yielded a Percent viruses neutralized with an IC50 <50 µg/ml of 20%.

Work on B4 yielded a Median IC50 (µg/ml) against viruses neutralized with an IC50 <50 µg/ml of 1.45 µg/mL.

Molecular target: HIV-1 Env of all pseudoviruses of the cross-clade 162-pseudovirus panel (n=162)
Experiment: cell-based or functional assay

Work on B4 yielded a Median IC50 (µg/ml) against all viruses of 50 µg/mL.

Molecular target: HIV-1 clade C pseudoviruses (Env) of the cross-clade 162-pseudovirus panel, n=27
Experiment: cell-based or functional assay

Compared with B5, B6 is lower in Percent viruses neutralized with an IC50 <50 µg/ml: 67% for the first, 59% for the second.

Going from B1 to B2, the Percent viruses neutralized with an IC50 <50 µg/ml falls from 63% to 48%.

Work on B3 yielded a Percent viruses neutralized with an IC50 <50 µg/ml of 38%.

Binder B4 has a Median IC50 (µg/ml) against viruses neutralized with an IC50 <50 µg/ml of 1.32 µg/mL.

Molecular target: HIV-1 Env of the clade B pseudoviruses of the cross-clade 162-pseudovirus panel (n=31)
Experiment: cell-based or functional assay

First: B2
Second: B7
The Median IC50 (µg/ml) against viruses neutralized with an IC50 <50 µg/ml of the first is 4.5-fold lower: 0.17 µg/mL for the first, 0.77 µg/mL for the second.

In the case of B3, the Median IC50 (µg/ml) against viruses neutralized with an IC50 <50 µg/ml is reported as 0.36 µg/mL.

Molecular target: HIV-1 pseudovirus panel of Table 52
Experiment: cell-based or functional assay

First: B5
Second: B6
The median IC50, neutralizing activity over the panel of the first is 2-fold lower: 0.04 µg/mL for the first, 0.08 µg/mL for the second.

Compared with B1, B2 is 2-fold lower in median IC50, neutralizing activity over the panel: 0.04 µg/mL for the first, 0.02 µg/mL for the second.

Work on B7 yielded a median IC50, neutralizing activity over the panel of 0.03 µg/mL.

Molecular target: HIV-1 Env of the clade D pseudoviruses of the cross-clade 162-pseudovirus panel (n=25)
Experiment: cell-based or functional assay

B5 and B6 are within 1.5-fold of each other in Median IC50 (µg/ml) against viruses neutralized with an IC50 <50 µg/ml: 0.12 µg/mL for the first, 0.11 µg/mL for the second.

First: B1
Second: B2
The Median IC50 (µg/ml) against viruses neutralized with an IC50 <50 µg/ml of the first is 2.5-fold lower: 0.13 µg/mL for the first, 0.33 µg/mL for the second.

Compared with B7, B3 is 18-fold lower in Median IC50 (µg/ml) against viruses neutralized with an IC50 <50 µg/ml: 3.18 µg/mL for the first, 0.18 µg/mL for the second.

Molecular target: HIV-1 Env of the clade G pseudoviruses of the cross-clade 162-pseudovirus panel (n=15)
Experiment: cell-based or functional assay

Going from B2 to B7, the Median IC50 (µg/ml) against viruses neutralized with an IC50 <50 µg/ml rises from 0.17 µg/mL to 28.1 µg/mL (170-fold).

For B3, the Median IC50 (µg/ml) against viruses neutralized with an IC50 <50 µg/ml was 0.67 µg/mL.

Molecular target: HIV-1 clade A pseudoviruses (Env) of the cross-clade 162-pseudovirus panel, n=26
Experiment: cell-based or functional assay

B5 and B6 are the same in Percent viruses neutralized with an IC50 <50 µg/ml: 50% for the first, 50% for the second.

B1 and B2 are the same in Percent viruses neutralized with an IC50 <50 µg/ml: 50% for the first, 50% for the second.

B3 showed a Percent viruses neutralized with an IC50 <50 µg/ml of 46%.

B4 showed a Median IC50 (µg/ml) against viruses neutralized with an IC50 <50 µg/ml of 2.54 µg/mL.

Molecular target: HIV-1 clade D pseudoviruses (Env) of the cross-clade 162-pseudovirus panel, n=25
Experiment: cell-based or functional assay

Compared with B5, B6 is lower in Percent viruses neutralized with an IC50 <50 µg/ml: 36% for the first, 32% for the second.

Going from B1 to B2, the Percent viruses neutralized with an IC50 <50 µg/ml rises from 32% to 36%.

With B3 the Percent viruses neutralized with an IC50 <50 µg/ml was 28%.

B4 gave a Median IC50 (µg/ml) against viruses neutralized with an IC50 <50 µg/ml of 16.1 µg/mL.

Molecular target: HIV-1 Env of the clade A pseudoviruses of the cross-clade 162-pseudovirus panel (n=26)
Experiment: cell-based or functional assay

Compared with B6, B7 is 15-fold higher in Median IC50 (µg/ml) against viruses neutralized with an IC50 <50 µg/ml: 0.33 µg/mL for the first, 4.99 µg/mL for the second.

With B3 the Median IC50 (µg/ml) against viruses neutralized with an IC50 <50 µg/ml was 0.16 µg/mL.

Molecular target: HIV-1 Env of the clade F pseudoviruses of the cross-clade 162-pseudovirus panel (n=15)
Experiment: cell-based or functional assay

First: B6
Second: B1
The Median IC50 (µg/ml) against viruses neutralized with an IC50 <50 µg/ml of the first is 7.5-fold higher: 5.53 µg/mL for the first, 0.74 µg/mL for the second.

First: B2
Second: B7
The Median IC50 (µg/ml) against viruses neutralized with an IC50 <50 µg/ml of the first is 4.8-fold lower: 1 µg/mL for the first, 4.84 µg/mL for the second.

With B3 the Median IC50 (µg/ml) against viruses neutralized with an IC50 <50 µg/ml was 0.86 µg/mL.

Molecular target: HIV-1 clade F pseudoviruses (Env) of the cross-clade 162-pseudovirus panel, n=15
Experiment: cell-based or functional assay

Going from B6 to B1, the Percent viruses neutralized with an IC50 <50 µg/ml falls from 73% to 53%.

Compared with B2, B3 is lower in Percent viruses neutralized with an IC50 <50 µg/ml: 27% for the first, 13% for the second.

B4 showed a Median IC50 (µg/ml) against viruses neutralized with an IC50 <50 µg/ml of 21.1 µg/mL.

Molecular target: 162-pseudovirus panel representing all major circulating HIV-1 subtypes
Experiment: cell-based or functional assay

First: B5
Second: B6
The Median IC50 (µg/ml) against viruses neutralized with an IC50 <50 µg/ml of the first is 1.7-fold lower: 0.03 µg/mL for the first, 0.05 µg/mL for the second.

B1 and B2 are within 1.5-fold of each other in Median IC50 (µg/ml) against viruses neutralized with an IC50 <50 µg/ml: 0.03 µg/mL for the first, 0.04 µg/mL for the second.

Going from B7 to B3, the Median IC50 (µg/ml) against viruses neutralized with an IC50 <50 µg/ml falls from 0.16 µg/mL to 0.08 µg/mL (2-fold).

B4 gave a Median IC50 (µg/ml) against viruses neutralized with an IC50 <50 µg/ml of 3.46 µg/mL.

Going from B5 to B6, the Percent viruses neutralized, IC50 <0.1 µg/ml falls from 44% to 36%.

B1 and B2 are the same in Percent viruses neutralized, IC50 <0.1 µg/ml: 40% for the first, 40% for the second.

Compared with B7, B3 is higher in Percent viruses neutralized, IC50 <0.1 µg/ml: 23% for the first, 27% for the second.

B4 was tested, and the Percent viruses neutralized, IC50 <0.1 µg/ml was 4%.

Compared with B5, B6 is lower in Percent viruses neutralized, IC50 <1 µg/ml: 57% for the first, 48% for the second.

Compared with B1, B2 is lower in Percent viruses neutralized, IC50 <1 µg/ml: 54% for the first, 50% for the second.

First: B7
Second: B3
The Percent viruses neutralized, IC50 <1 µg/ml of the first is lower: 35% for the first, 37% for the second.

With B4 the Percent viruses neutralized, IC50 <1 µg/ml was 8%.

First: B5
Second: B6
The Percent viruses neutralized, IC50 <50 µg/ml of the first is higher: 70% for the first, 65% for the second.

Compared with B1, B2 is lower in Percent viruses neutralized, IC50 <50 µg/ml: 67% for the first, 60% for the second.

Going from B7 to B3, the Percent viruses neutralized, IC50 <50 µg/ml falls from 52% to 50%.

B4 was tested, and the Percent viruses neutralized, IC50 <50 µg/ml was 22%.

Molecular target: HIV-1 Env of the clade AE pseudoviruses of the cross-clade 162-pseudovirus panel (n=10)
Experiment: cell-based or functional assay

First: B2
Second: B7
The Median IC50 (µg/ml) against viruses neutralized with an IC50 <50 µg/ml of the first is 240-fold higher: 19.6 µg/mL for the first, 0.08 µg/mL for the second.

Molecular target: HIV-1 clade B pseudoviruses (Env) of the cross-clade 162-pseudovirus panel, n=31
Experiment: cell-based or functional assay

Compared with B5, B6 is lower in Percent viruses neutralized with an IC50 <50 µg/ml: 81% for the first, 77% for the second.

Binder B1 has a Percent viruses neutralized with an IC50 <50 µg/ml of 77%.

Molecular target: HIV-1 Env of the clade C pseudoviruses of the cross-clade 162-pseudovirus panel (n=27)
Experiment: cell-based or functional assay

First: B2
Second: B7
The Median IC50 (µg/ml) against viruses neutralized with an IC50 <50 µg/ml of the first is 2.8-fold lower: 0.96 µg/mL for the first, 2.67 µg/mL for the second.

For B3, the Median IC50 (µg/ml) against viruses neutralized with an IC50 <50 µg/ml was 7.99 µg/mL.

Molecular target: HIV-1 Env of the clade AG pseudoviruses of the cross-clade 162-pseudovirus panel (n=10)
Experiment: cell-based or functional assay

Compared with B5, B6 is 1.7-fold higher in Median IC50 (µg/ml) against viruses neutralized with an IC50 <50 µg/ml: 0.56 µg/mL for the first, 0.97 µg/mL for the second.

Going from B1 to B3, the Median IC50 (µg/ml) against viruses neutralized with an IC50 <50 µg/ml falls from 2.27 µg/mL to 0.24 µg/mL (9.5-fold).

Molecular target: All HIV-1 pseudoviruses (Env) of the cross-clade 162-pseudovirus panel, n=162
Experiment: cell-based or functional assay

B6 and B1 are within 1.5-fold of each other in Median IC50 (µg/ml) against viruses neutralized with an IC50 <50 µg/ml: 0.26 µg/mL for the first, 0.18 µg/mL for the second.

First: B2
Second: B3
The Median IC50 (µg/ml) against viruses neutralized with an IC50 <50 µg/ml of the first is 2.7-fold lower: 0.17 µg/mL for the first, 0.46 µg/mL for the second.

In the case of B4, the Median IC50 (µg/ml) against viruses neutralized with an IC50 <50 µg/ml is reported as 2.1 µg/mL.
